PSTVd stem 15 mutant pool in Nicotiana benthamiana

From the data files of Wu et al. 2024, doi:10.1371/journal.ppat.1012142.

Region: stem 15 of PSTVd (intermediate strain), upper and lower strand joined, each 5' to 3', the first 9 letters being the upper strand. Wild type: CUGGAGCGAUCGCUUCGG. Varied positions (N): CUGGAGCGAUNGNNUNNG.

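Three N. benthamiana plants were inoculated with the whole mutant pool. Progeny were sequenced from the inoculated region (day 5), the margin of the inoculated leaf (day 10) and systemic leaves (day 12).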

Values are reads per thousand in the sample; higher means more abundant, 0 means not found.
Each site shows the three plants.
"Pool" is the share in the plasmid pool used as inoculum, on the same scale.
The inoculated region was read from the minus strand, the other sites from the plus strand.
IR is the inoculated region, LM the leaf margin, Sys the systemic leaves.

With CUGGAGCGAUUGAUUGGG (pool 2.15) the assay gave IR 0.978 / 0.942 / 0.893; LM 0.103 / 0.0273 / 0.0159; Sys 0 / 0 / 0. For CUGGAGCGAUCGUCUAAG (pool 0.792) the result was IR 2.17 / 0.754 / 1.53; LM 0.0620 / 0 / 0.0317; Sys 0 / 0 / 0. With CUGGAGCGAUUGUUUUCG (pool 0.857) the assay gave IR 3.27 / 1.72 / 3.03; LM 0.786 / 0.600 / 1.89; Sys 0.851 / 0.465 / 0.399. For CUGGAGCGAUUGACUCCG (pool 1.60) the result was IR 0.861 / 1.53 / 0.893; LM 0.0207 / 0.0545 / 0.0159; Sys 0 / 0 / 0.0399. CUGGAGCGAUCGUCUUGG (pool 0.857) gave IR 2.02 / 1.13 / 1.62; LM 0.0207 / 0.0273 / 0.523; Sys 0 / 0 / 0. CUGGAGCGAUUGAUUCAG (pool 0.760) read IR 0.313 / 0.398 / 0.261; LM 0.0620 / 0.0545 / 0.0159; Sys 0 / 0 / 0.

For CUGGAGCGAUGGCAUCGG (pool 1.15) the result was IR 0.294 / 0.168 / 0.391; LM 0 / 0.0273 / 0; Sys 0 / 0 / 0. With CUGGAGCGAUGGAUUCAG (pool 0.840) the assay gave IR 0.254 / 0.209 / 0.186; LM 0.0414 / 0.0545 / 0; Sys 0 / 0 / 0. CUGGAGCGAUAGCAUAAG (pool 0.857) read IR 0.372 / 0.272 / 0.279; LM 0.0827 / 0.0273 / 0.0476; Sys 0 / 0 / 0. With CUGGAGCGAUUGAAUCAG (pool 0.873) the assay gave IR 0.215 / 0.168 / 0.242; LM 0.0620 / 0 / 0.0159; Sys 0 / 0 / 0. CUGGAGCGAUGGCUUCUG (pool 1.00) gave IR 0.333 / 0.251 / 0.391; LM 0.0620 / 0.0545 / 0; Sys 0 / 0 / 0. CUGGAGCGAUCGCAUAUG (pool 0.905) gave IR 0.352 / 0.188 / 0.335; LM 0 / 0.0545 / 0.0159; Sys 0 / 0 / 0.

With CUGGAGCGAUGGCGUAAG (pool 1.08) the assay gave IR 0.235 / 0.230 / 0.223; LM 0.0414 / 0 / 0.0317; Sys 0 / 0 / 0. With CUGGAGCGAUUGCAUUAG (pool 0.582) the assay gave IR 1.92 / 1.09 / 0.223; LM 0.0620 / 0.0273 / 0.0159; Sys 0 / 0 / 0. CUGGAGCGAUGGUAUAUG (pool 1.07) read IR 0.372 / 0.168 / 0.354; LM 0.0620 / 0.0818 / 0; Sys 0 / 0 / 0. CUGGAGAGAUUGGAUCUG (pool 0.0162) gave IR 0 / 0 / 0; LM 0 / 0 / 0; Sys 0 / 0 / 0. CUGGAGCGAUCGCUACGG (pool 0.0970) read IR 0.137 / 0.0419 / 0.0744; LM 0.124 / 0.0818 / 0.0793; Sys 0.0396 / 0.0886 / 0.120. For CUGGAGCGAUUGUAUUAG (pool 1.24) the result was IR 1.98 / 1.05 / 1.77; LM 0.641 / 0.491 / 0.824; Sys 0.693 / 0.421 / 0.478.

CUGGAGCGAUAGAAUAGG (pool 0.986) gave IR 0.333 / 0.251 / 0.223; LM 0 / 0.0545 / 0.0793; Sys 0 / 0 / 0. CUGGAGCGAUCGUGUUAG (pool 0.857) read IR 1.84 / 0.900 / 1.69; LM 0.0414 / 0 / 0.919; Sys 0 / 0 / 0. CUGGAGCGAUUGCAUACG (pool 1.02) gave IR 0.411 / 0.209 / 0.205; LM 0.0620 / 0.0273 / 0.0159; Sys 0 / 0 / 0. CUGGAGCGAUGGCCUACG (pool 0.792) read IR 0.333 / 0.272 / 0.372; LM 0.0414 / 0.136 / 0.0317; Sys 0 / 0 / 0. CUGGAGCGAUUGCAUCUG (pool 0.857) gave IR 0.254 / 0.293 / 0.503; LM 0.0414 / 0 / 0; Sys 0 / 0 / 0. CUGGAGCGAUAGCGUCUG (pool 0.776) gave IR 0.352 / 0.251 / 0.242; LM 0 / 0.0545 / 0.0476; Sys 0 / 0 / 0.

With CUGGAGCGAUGGGGUUAG (pool 0.824) the assay gave IR 0.176 / 0.105 / 0.261; LM 0.0827 / 0.109 / 0.0317; Sys 0 / 0 / 0. With CUGGAGCGAUUGAGUGGG (pool 1.02) the assay gave IR 0.254 / 0.335 / 0.279; LM 0.0207 / 0 / 0.0476; Sys 0 / 0 / 0. With CUGGAGCGAUCGAUUGCG (pool 0.905) the assay gave IR 0.352 / 0.251 / 0.298; LM 0 / 0 / 0.0159; Sys 0 / 0 / 0. For AUGGAGCGAUGGUAUCGG (pool 0.0162) the result was IR 0 / 0 / 0; LM 0 / 0 / 0; Sys 0 / 0 / 0. For CUGGAGCGAUAGGAUACG (pool 0.743) the result was IR 0.333 / 0.168 / 0.428; LM 0.0207 / 0.0545 / 0; Sys 0 / 0 / 0. With CUGGAGCGAUAGGGUCUG (pool 0.679) the assay gave IR 0.196 / 0.188 / 0.205; LM 0.103 / 0 / 0; Sys 0 / 0 / 0.

With CUGGAGCGAUGGUUUCCG (pool 0.873) the assay gave IR 0.235 / 0.230 / 0.447; LM 0.0207 / 0.0545 / 0.0159; Sys 0 / 0 / 0. With CUGGAGCGAUUGUGUGCG (pool 1.03) the assay gave IR 2.27 / 2.01 / 0.261; LM 0.124 / 0.0273 / 0.0476; Sys 0 / 0 / 0. For CUGGAGCGAUCGCGUCGG (pool 1.12) the result was IR 1.21 / 0.817 / 1.15; LM 0.703 / 1.04 / 0.602; Sys 0.713 / 0.842 / 0.857. CUGGAGCGAUAGACUCUG (pool 0.840) gave IR 0.254 / 0.419 / 0.316; LM 0.103 / 0.0273 / 0; Sys 0 / 0 / 0. CGGGAGCGAUAGGGUGCG (pool 0.0162) gave IR 0 / 0 / 0; LM 0 / 0 / 0; Sys 0 / 0 / 0. For CAGGAGCGAUGGAUUUUG (pool 0.0162) the result was IR 0 / 0 / 0; LM 0 / 0 / 0; Sys 0 / 0 / 0.

CUGGAGCGAUUGGUUCGG (pool 2.60) read IR 4.46 / 3.58 / 3.95; LM 0.124 / 0.0818 / 0.0159; Sys 0 / 0 / 0.0199. CUGGAGCGAUAGGAUGAG (pool 0.970) gave IR 0.294 / 0.356 / 0.279; LM 0.0620 / 0.0545 / 0.0317; Sys 0 / 0 / 0.

Samples held 36,693 to 63,082 reads, so the smallest values rest on one or two reads.
Sequences that differ at fixed positions probably stem from PCR or sequencing errors, and defective variants can be carried along by functional ones.
For reference, wild type rose from 10.2 per thousand in the pool to 285, 367, 312 (inoculated region), 785, 865, 782 (leaf margin) and 854, 898, 915 (systemic leaves).